# Test results from PubChem BioAssay AID504770 (ICCB-Longwood Screening Facility, Harvard Medical School, 2011).
# The list shows a part of the results, in another mix than the full data. The source made the active and inactive calls. Cut-off read from the data, not from the text of the source: active = z-score below about -2 (passing the limit was not always enough); inactive = the rest.
# Experiment: PubChem AID 504770
# Conditions: E. coli YBA685 rctB-dependent plasmid, OD600 growth, 3 h; hits give low values
row,SMILES,z-score
1,CC(C)(C)OC(=O)N1CCC(Nc2ccc(OC(F)(F)F)cc2)CC1,inactive: 0.65
2,Cn1nc(C(=O)NCC2(N3CCCCC3)CCCCC2)c2ccccc2c1=O,inactive: 0.55
3,FC(F)(F)Oc1ccc(NC2CCNCC2)cc1,inactive: -0.35
4,Cc1ccc(C(=O)NCC2(N(C)C)CCCCC2)o1,inactive: 0.2
5,c1ccc(CN2CCC(Nc3ccc4c(c3)OCO4)CC2)cc1,inactive: -0.15
6,NC(=O)C1(Nc2ccc(F)cc2)CCNCC1,inactive: -0.9
7,COc1ccc(C(=O)NCC2(N3CCCCC3)CCCCC2)cc1,inactive: -0.5
8,Cc1ccccc1NC1CC(C)(C)NC(C)(C)C1,inactive: 0.3
9,CCCN1CCC(Nc2ccc(OC)c(OC)c2)CC1,inactive: -0.9
10,CC1CN(CCc2ccccc2)CCC1=O (stereo unspecified),inactive: -0.8
11,N#CC1(Nc2ccccc2)CCN(Cc2ccccc2)CC1,inactive: -0.4
12,Cc1cnc(C(=O)NCC2(N3CCCCC3)CCCCC2)cn1,inactive: 0.15
13,CCOC(=O)N1CCC(Nc2ccc(F)cc2)CC1,inactive: -0.25
14,O=C1CCN(Cc2ccccc2)CC1,inactive: 3.05
15,O=C(NCC1(N2CCOCC2)CCCCC1)c1ccc2nc[nH]c2c1,inactive: 0.1
16,CCOC(=O)N1CCC(Nc2cccc(C)c2)CC1,inactive: -0.45

row,SMILES,z-score
1,CC1CN(Cc2ccccc2)CCC1=O (stereo unspecified),inactive: 0.95
2,CC1CN(CCc2ccccc2)C(C)CC1=O (stereo unspecified),inactive: -0.7
3,CN(C)c1ccc(C(=O)NCC2(N3CCCCC3)CCCCC2)cc1,inactive: -0.25
4,CC1CN(C)C(C)CC1Nc1ccccc1 (stereo unspecified),inactive: -1.35
5,CCN1CCC(Nc2ccc(F)cc2)CC1,inactive: 0.75
6,CCOc1ncccc1C(=O)NCC1(N(C)C)CCCCC1,inactive: -0.45
7,CC(C)(C)OC(=O)N1CCC(Nc2ccccc2)CC1,inactive: -0.55
8,CCOc1ncccc1C(=O)NCC1(N2CCCCC2)CCCCC1,inactive: 0.8
9,O=C(NCC1(N2CCCCC2)CCCCC1)c1n[nH]c2ccccc12,inactive: 0.25
10,NC(=O)C1(Nc2ccccc2)CCN(Cc2ccccc2)CC1,inactive: -0.25
11,CN1CCC(Nc2ccc(F)cc2)CC1,inactive: 0.4
12,O=C1CCN(CCc2ccccc2)CC1,inactive: -1.35
13,O=C(NCC1(N2CCOCC2)CCCCC1)c1cc2ccccc2cc1O,inactive: -0.65
14,Cc1c(C(=O)NCC2(N3CCOCC3)CCCCC2)oc2c(Cl)cccc12,inactive: 0
15,CCCN1CCC(Nc2cc(OC)cc(OC)c2)CC1,inactive: 0
